According to patent US20150259428:

Molecular target: T1, CD20 (B-lymphocyte antigen CD20), human, expressed on the cell surface, human, P11836 1-297
T1 sequence: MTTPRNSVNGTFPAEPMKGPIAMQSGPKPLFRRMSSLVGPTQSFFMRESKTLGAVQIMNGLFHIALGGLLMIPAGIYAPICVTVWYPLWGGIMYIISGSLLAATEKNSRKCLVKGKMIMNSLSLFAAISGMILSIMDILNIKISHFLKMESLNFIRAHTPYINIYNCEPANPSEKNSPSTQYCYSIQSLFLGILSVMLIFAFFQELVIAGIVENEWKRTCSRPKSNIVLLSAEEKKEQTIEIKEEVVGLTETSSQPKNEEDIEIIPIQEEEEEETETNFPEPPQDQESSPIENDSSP

| Substance | Kd |
| --- | --- |
| αCD20scFv1::SLT-1A version 1 | 82.5 nM |
| αCD20scFv1::SLT-1A version 2 | 101 nM |
